Data from the supplement of paper PMC3578754.
Fold change is the IC50 on the isolate divided by the IC50 on a reference virus; 1 = unchanged, higher = more resistant. Changes are given against the subtype B consensus. No active / inactive call. The values were gathered from many studies (numbered anew) with different assays, which the source does not name. Most viruses are clinical isolates; some are laboratory strains or clones with known resistance changes. Isolates with mixed residues are left out; stretches that were not sequenced show no change. Round top values that many isolates share are read here as limits; other very high values and 0.1 may be limits too. The protease changes I3V and N37S, insertions and deletions cannot be read from the source.

Experiments:
Experiment in all cases: fold change of IC50 against reference virus; higher = more resistant; Cell-culture drug susceptibility tests of virus bearing the protease of each isolate, gathered from many studies.
[1] = compound: CC(C)(C)NC(=O)[C@@H]1CN(Cc2cccnc2)CCN1C[C@@H](O)C[C@@H](Cc1ccccc1)C(=O)N[C@H]1c2ccccc2C[C@H]1O [indinavir]
[2] = compound: CC(C)(C)NC(=O)[C@@H]1C[C@@H]2CCCC[C@@H]2CN1C[C@@H](O)[C@H](Cc1ccccc1)NC(=O)[C@H](CC(N)=O)NC(=O)c1ccc2ccccc2n1 [saquinavir]
[3] = compound: CC(C)c1nc(CN(C)C(=O)N[C@H](C(=O)N[C@@H](Cc2ccccc2)C[C@H](O)[C@H](Cc2ccccc2)NC(=O)OCc2cncs2)C(C)C)cs1 [ritonavir]
[4] = compound: COC(=O)N[C@H](C(=O)N[C@@H](Cc1ccccc1)[C@@H](O)CN(Cc1ccc(-c2ccccn2)cc1)NC(=O)[C@@H](NC(=O)OC)C(C)(C)C)C(C)(C)C [atazanavir]
[5] = compound: Cc1c(O)cccc1C(=O)N[C@@H](CSc1ccccc1)[C@H](O)CN1C[C@H]2CCCC[C@H]2C[C@H]1C(=O)NC(C)(C)C [nelfinavir]
[6] = compound: Cc1cccc(C)c1OCC(=O)N[C@@H](Cc1ccccc1)[C@@H](O)C[C@H](Cc1ccccc1)NC(=O)[C@H](C(C)C)N1CCCNC1=O [lopinavir]

Test System | fold change of IC50 against reference virus [1] | fold change of IC50 against reference virus [2] | fold change of IC50 against reference virus [3] | fold change of IC50 against reference virus [4] | fold change of IC50 against reference virus [5] | fold change of IC50 against reference virus [6]
HIV-1 isolate 977 (protease changes: V32I M46I L63P A71V V77I V82A, study 138) | 3.5 | 0.4 | 7.6 | 2.6 | 4.1 | 1.4
HIV-1 isolate 152 (protease changes: L10V M36I N37D L63P H69Q I93L, study 15) | 0.7 | 0.5 | 0.9 | 0.6 | 1.4 | 0.8
HIV-1 isolate 779 (protease changes: L10I K20R L33F E34T E35D M36I N37D K43T M46I G48V I50V I54S I62V L63P A71V I72V V77I V82A I85V I93L, study 83) | 186 | – | 400 | 90 | 95 | ≥ 500
HIV-1 isolate 948 (protease changes: L10I I15V L63V I93L, study 83) | 1.6 | 1.2 | 1.2 | 1.3 | 1.5 | 1.1
HIV-1 isolate 785 (protease changes: L10I L63V, study 15) | 1.2 | 0.9 | 0.7 | 0.7 | 0.9 | 0.7
HIV-1 isolate 105 (protease changes: L10I V11I I13V L33F E35D N37H R41K M46L I54V L63A A71V V82A I84V I93L, study 15) | 5.7 | 6.5 | 82 | 9.8 | 8 | 41
HIV-1 isolate 1061 (protease changes: I72V, study 15) | 0.5 | 0.6 | 0.5 | 0.4 | 0.5 | 0.5
HIV-1 isolate 406 (protease changes: L10I V11L I13V I15V K20R V32I L33F E35D M36I K43T M46I I47V F53L I54M R57K L63P G73S V77I V82A, study 15) | 31 | 11 | 400 | 70 | 51 | 306
HIV-1 isolate 1361 (protease changes: L10I M46I Q58E I62V L63P A71V G73T V77I V82A I85V L90M I93L, study 15) | 9.6 | – | 19 | 10 | 15 | 6.8
HIV-1 isolate 663 (protease changes: L10F N37D M46I I54V D60E I62V L63P A71V L76V V77I V82A I93L, study 21) | 14 | 0.7 | 8.2 | 0.6 | 3.9 | 53
HIV-1 isolate 1230 (protease changes: L10V T12P I13V K14R I15V G16E K20R V32I L33F E35D M36I N37C I47V I54L Q58E I62V L63H I64V A71V L76V V77I P79S V82A I84V T91S, study 101) | – | 18 | 162 | 51 | 15 | 233
HIV-1 isolate 315 (protease changes: T4S M46I I50V L63P H69Q L76V, study 101) | – | 0.3 | 1.6 | 0.4 | 1.3 | 3.4
HIV-1 isolate 903 (protease changes: L10I I15V L19I I54V R57K L63A I66L A71V V82F L90M I93L, study 15) | 32 | 3 | 58 | 3.8 | 34 | 25
HIV-1 isolate 1022 (protease changes: L10I L33F E35D M36I G48V I54T L63P H69R A71I V82A I84V I93L, study 64) | 123 | – | ≥ 800 | 13 | 76 | 64
HIV-1 isolate 628 (protease changes: L10I I15V E35D M36I R41K I54V K70E A71V V82A I93L, study 101) | – | 1.3 | 19 | 2 | 5.3 | 6.4
HIV-1 isolate 1209 (protease changes: K20R M36I R41K I54V D60E I62V L63P A71V V82A I93L, study 21) | 5.3 | 1.6 | 23 | 2.3 | 7.2 | 6.3
HIV-1 isolate 1611 (protease changes: L10I I13V E35D M36I R41K I50V L63P A71V, study 117) | 2.5 | 4.5 | 12.6 | 2.1 | 7 | 9.4
HIV-1 isolate 111 (protease changes: V32I M46I K55R L63P A71V V82A L90M, study 15) | 9.9 | 1.3 | 18 | 7.3 | 11 | 4.9
HIV-1 isolate 333 (protease changes: none, study 15) | 1 | 0.8 | 1.1 | 1 | 1 | 0.9
HIV-1 isolate 1264 (protease changes: L63P H69Q V77I, study 15) | 0.3 | 0.3 | 0.3 | 0.3 | 0.3 | 0.2

Test System | fold change of IC50 against reference virus [1] | fold change of IC50 against reference virus [2] | fold change of IC50 against reference virus [3] | fold change of IC50 against reference virus [4] | fold change of IC50 against reference virus [5] | fold change of IC50 against reference virus [6]
HIV-1 isolate 1058 (protease changes: L10I M46I I54V L63R A71V G73S V77I V82A L90M, study 15) | 28 | 25 | 40 | 26 | 36 | 26
HIV-1 isolate 224 (protease changes: L63P I72E V77I, study 15) | 0.4 | 0.6 | 0.4 | 0.6 | 0.7 | 0.4
HIV-1 isolate 1290 (protease changes: K14R I15V R41K L63P, study 64) | 0.9 | 0.7 | 1 | 0.9 | 1.1 | 0.8
HIV-1 isolate 459 (protease changes: L10I K20R E35D M36I N37D R57K L63P A71V G73S I84V L90M I93L, study 64) | 19 | 123 | 51 | 31 | 25 | 8.3
HIV-1 isolate 29 (protease changes: I15V E35D L63Q V77I, study 15) | 0.5 | 0.5 | 0.6 | 0.6 | 0.6 | 0.5
HIV-1 isolate 1410 (protease changes: L10F I13V L23I L33F I54V R57K Q58E D60E L63P A71V L76V V82A I93L, study 64) | 46 | 7.2 | ≥ 800 | 21 | 75 | 280
HIV-1 isolate 1216 (protease changes: L10I I13V K14R L19I V32I E35D M36L N37Q M46I F53L I54M R57K L63P A71V G73S L76V V77I L89V L90M, study 101) | – | 19 | 52 | 52 | 55 | 13
HIV-1 isolate 307 (protease changes: L10I I13V K14R L19I V32I E35D N37Q M46I F53L I54M R57K L63P A71V G73S V77I L89V L90M, study 101) | – | 3.1 | 9.9 | 10 | 14 | 2.5
HIV-1 isolate 897 (protease changes: T4S L10F M46I I50V L63P H69Q A71V L76V T91A, study 101) | – | 0.4 | 1.5 | 0.5 | 0.8 | 10
HIV-1 isolate 825 (protease changes: L10I I15V K20R E35D M36I R41K M46I I54V I62V L63P K70E A71V L76V V82A I93L, study 101) | – | 1.7 | 35 | 1.6 | 12 | 78
HIV-1 isolate 761 (protease changes: L10I I15V K20R E35D M36I R41K I54V L63P K70E A71V L76V V82A I93L, study 101) | – | 2.2 | 57 | 2.9 | 10 | 20
HIV-1 isolate 328 (protease changes: L10I I15V G16A K20R E35D M36I N37D M46L I54V K55R R57K I62V L63P A71V L76V V82A I93L, study 15) | – | 2 | 55 | 1.7 | 11 | 120
HIV-1 isolate 1271 (protease changes: L10I I13V L63P V77I, study 65) | 1.7 | – | 1.6 | 1.4 | 3 | 1.4
HIV-1 isolate 1010 (protease changes: I13V E35D M36I M46I I50V I62V L63P A71V L76V V82I, study 101) | – | 0.9 | 29 | 1.6 | 4.9 | 40
HIV-1 isolate 509 (protease changes: L10F I15V K20R L24I E35D M36I N37E M46I I54V I62V L63T I64V T74P I84V L89M, study 15) | – | 64 | 79 | 63 | 54 | 35
HIV-1 isolate 1221 (protease changes: I13V E35D M36I M46I I50V L63P V82I, study 101) | – | 1.9 | 18 | 0.9 | 5.6 | 7.8
HIV-1 isolate 138 (protease changes: L10I I15V K20R M36I N37D R41K M46I I54V I62V L63P I64V I72V L76V V82A I93L, study 101) | – | 1.3 | 46 | 0.8 | 10 | 86
HIV-1 isolate 1303 (protease changes: L10I T12Q L19I L24I K43T M46I I54V Q61R I62V L63P A71V L76V V82A I93L, study 101) | – | 2.6 | 81 | 5.2 | 18 | 104
HIV-1 isolate 1469 (protease changes: T12Q L19I I64V, study 101) | – | 0.8 | 0.8 | 0.7 | 0.9 | 0.7
HIV-1 isolate 374 (protease changes: L10I I13V K20R E35D M36I M46I I50V I62V L63P A71V L76V V82I, study 101) | – | 5.3 | 34 | 1.8 | 6.9 | 72
